The record followed here is article PMC12299576 (Viruses, 2025).

The subject of this assay is HTNV-76118 strain. Type of assay: cell-based, Hantaan virus (HTNV). The note with it: selection index, CC50/EC50, Vero E6.
The compound `CC(C)CC(=O)c1c(O)cc(O)c2c1OC1=C(C(=O)C(C)(C)C(=O)C1(C)C)C2CC(C)C` (centres unmarked) [Rhodomyrtosone B, rhodomyrtosone B] yielded an SI of 2.77.

In the case of `NC(=O)c1ncn([C@@H]2O[C@H](CO)[C@@H](O)[C@H]2O)n1` [Ribavirin, ribavirin, reference compound], the SI was more than 9.74. The same measure for `CC(C)CC(=O)c1c(O)c2c(c3c1OC1(O)C(C(=O)C(C)(C)C(=O)C1(C)C)C3CC(C)C)OC1=C(C(=O)C(C)(C)C(=O)C1(C)C)C2CC(C)C` (centres unmarked) [Callistemontrimer B, callistemontrimer B]: 6.05; for `CC(C)CC(=O)c1c(O)c2c(c3c1OC1(O)C(C(=O)C(C)(C)C(=O)C1(C)C)C3C(C)C)OC1=C(C(=O)C(C)(C)C(=O)C1(C)C)C2CC(C)C` (centres unmarked) [Callistemontrimer A, callistemontrimer A]: 7.28; for `CC(C)CC(=O)c1c(O)cc2c(c1O)C(CC(C)C)C1=C(O2)C(C)(C)C(=O)C(C)(C)C1=O` (centres unmarked) [Rhodomyrtone, rhodomyrtone]: 17.03.
